Consider one substance from patent US8729034B2, “Pharmaceutical composition having virucidal and spermicidal activity” (priority 2007, dated 2014).

This series deals with Female cycling rats. Description: Intra uterine application of Ac-B and IUI in rat, fertilization outcome. To be noted: 1.75 mg Ac-B intrauterine. It counts as in vivo, Sprague-Dawley rats. How it is done:
Female cycling rats weighing 180-200 g were obtained from the institutional Animal House. The duplex nature of the rat uterus with separate cervical canal helped us to organize both control and experimental sets in the same animal with exposure to identical physiological milieu.
On the day of pro-estrous, both horns of the uterus were exposed by mid-ventral incision of the abdomen under light anesthesia following intra peritoneal injection of Ketamin at a concentration of 100 mg/kg body weight, supported by inhalation of anesthetic-ether, during 17.00-17.30 hours of the day. IUI was performed by injecting 50 microliters of sperm suspensions with varied concentration (25-30, 40-50, and 50-55 million sperms/ml) through a 24 G needle fitted onto a tuberculin syringe in the cervical end of the uterine lumen of each horn. The muscle in the injection site was held tightly for a while to prevent leakage through the puncture. Prior to IUI, each rat received a injection of 1.75 mg Ac-B in 50 microliters BWW medium in the left horn and simple BWW medium in the right horn. The opened abdominal muscle and skin layers were properly sutured by suturing silk thread. The outer most skin layers were further fixed by metal clips. The wound was properly cleaned with antiseptic lotions. Each operated animal was housed individually in fresh cage for collection and counting of unfertilized oocytes, two celled embryos, and fragmented bodies. […] The abdomen was opened and each of the fallopian tubes was collected carefully. The content of each tube was flushed out by introducing BWW medium into each tube with the help of a 30 G hypodermic needle in a watch glass. The flushed out lavage was examined under an inverted phase contrast microscope (Leitz, Labovert, ×100) to score the number of recovered fertilized/unfertilized eggs from individual fallopian tube.

Turning to Acaciaside-B [Ac-B], the “Total (eggs recovered), treated horn” value reads like this: (sperm count 25-30 million/ml (N = 3)) 17; (sperm count 40-50 million/ml (N = 4)) 19; (sperm count 50-55 million/ml (N = 4)) 16.
